# The list shows a part of the results, in another mix than the full data. Activity calls are given as the source filed them. Rule as the data show it: active = inhibition above about 27%; inactive = the rest.
# Amino acid sequences for entries named in this document (tags omitted). A change or cut given only in a name is not applied to a line headed by its entry.
# UniProt P9WQA3: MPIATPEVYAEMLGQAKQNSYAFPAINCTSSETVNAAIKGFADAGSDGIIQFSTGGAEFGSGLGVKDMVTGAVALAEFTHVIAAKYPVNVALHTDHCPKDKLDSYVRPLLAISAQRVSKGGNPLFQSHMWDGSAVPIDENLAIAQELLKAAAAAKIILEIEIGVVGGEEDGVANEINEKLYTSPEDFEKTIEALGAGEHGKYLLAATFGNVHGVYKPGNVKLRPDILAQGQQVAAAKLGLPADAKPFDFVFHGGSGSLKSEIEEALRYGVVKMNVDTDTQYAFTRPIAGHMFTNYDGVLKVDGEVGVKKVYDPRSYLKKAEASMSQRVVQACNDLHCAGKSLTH
# Molecular target: Fructose-bisphosphate aldolase (Mycobacterium tuberculosis (strain ATCC 25618 / H37Rv)) (UniProt P9WQA3)
# Assay: Mtb FBA enzyme inhibitors, primary screen, biochemical, fluorescence, strain H37Rv (AID 588726);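 also: 0% = vehicle and 100% = reference inhibitor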
# Settings: purified M. tuberculosis FBA, fluorescence read-out; at 1 µM; active compounds read high
row,Structure (SMILES),inhibition
1,COP1(=S)c2c(C)nn(CCC#N)c2N=C(c2ccc(F)cc2)N1C (stereo not given),inactive: -5.07%
2,COC(=O)C1(C)COP(=O)(N2CCCC2)OC1 (stereo not given),inactive: 2.18%
3,O=C(COc1ccccc1)OC1CN2CCC1CC2 (stereo not given),inactive: -4.16%
4,O=C(Nc1ccncc1[N+](=O)[O-])c1ccc([N+](=O)[O-])cc1[N+](=O)[O-],inactive: 0.17%
5,O=C(O)C(=O)c1ccc(N(CCCl)CCCl)cc1,inactive: -1.97%
6,CCOC(=O)c1ccc(NC(=O)C(C)(CCl)SC)cc1 (stereo not given),inactive: 0.47%
7,O=C(OC1CN2CCC1CC2)c1cccc([N+](=O)[O-])c1 (stereo not given),inactive: -2.09%
8,CSc1ccc(Nc2c([N+](=O)[O-])cc([N+](=O)[O-])cc2[N+](=O)[O-])cc1,inactive: -9.62%
9,CCC(C)N(CC(C)C)C(=S)SC(NC(C)=O)C(Cl)(Cl)Cl (stereo not given),inactive: -6.5%
10,CC1CCNP(=O)(N(CCCl)CCCl)O1 (stereo not given),inactive: 0.03%
11,CCOC(=O)Nc1ccc([As](=O)(O)O)c(O)c1,inactive: 0.78%
12,O=C(O)C(O)c1ccc(N(CCCl)CCCl)cc1 (stereo not given),inactive: -0.61%
13,CCCCOc1ccc(C(=O)NCC2(N3CCCCC3)CCCCC2)cc1OC,inactive: 1.95%
14,Cc1cc(SC(NC(=O)c2ccccc2)C(Cl)(Cl)Cl)nc(C(C)C)n1 (stereo not given),inactive: 2.77%
15,COP(=O)(OC)N1CC1c1ccccc1 (stereo not given),inactive: 0.14%
16,CCOC(=O)Nc1cccc([As](=O)(O)O)c1,inactive: 0.79%
17,O=[N+]([O-])c1ccc(Nc2ccc(Oc3ccc([N+](=O)[O-])cc3[N+](=O)[O-])cc2)c([N+](=O)[O-])c1,inactive: -0.78%
18,O=P(Nc1ccccn1)(c1cccc2ccccc12)c1cccc2ccccc12,inactive: -0.24%
19,Cc1cc(SC(NC=O)C(Cl)(Cl)Cl)ncn1 (stereo not given),inactive: -3.23%
20,O=[As](O)(c1ccc(O)cc1)c1ccccc1O,inactive: -5.7%
21,C[As](=O)(O)c1cccc(C(=O)O)c1,inactive: 0.92%
22,O=[N+]([O-])c1ccc(-c2cc([N+](=O)[O-])c(O)c([N+](=O)[O-])c2)cc1,inactive: -12.9%
23,COc1cc(C(=O)NCC2(N3CCOCC3)CCCCC2)ccc1OCC(C)C,inactive: 3.84%
24,Cc1ccc2nc3c(c(C)c2c1)CC(C(Cl)Cl)S3 (stereo not given),inactive: 0.62%
25,Cc1ccc(OP(=O)(Nc2ccc([N+](=O)[O-])cn2)Oc2ccc(C)cc2)cc1,inactive: 0.04%

row,Structure (SMILES),inhibition
1,COC(=O)C1(C)COP(=O)(N2CCCCCC2)OC1 (stereo not given),inactive: -1.14%
2,CC(C)c1ccc(OP(=O)(Nc2ccccn2)Oc2ccccc2F)cc1 (stereo not given),inactive: 1.63%
3,ClCCSc1nnc(-c2cccnc2)o1,inactive: 1.14%
4,CC(C)NC(=O)NP(=O)(Oc1ccccc1)Oc1ccccc1,inactive: 6.32%
5,CCN(CC)C(=S)SC(NC=O)C(Cl)(Cl)Cl (stereo not given),inactive: 2.07%
6,O=C(OC1CN2CCC1CC2)c1cccc2[nH]cnc12 (stereo not given),inactive: 3.12%
7,O=[N+]([O-])c1cc([N+](=O)[O-])c(-c2ccn[nH]2)s1,inactive: -0.91%
8,O=C(OC1CN2CCC1CC2)C12CC3CC(CC(C3)C1)C2 (stereo not given),inactive: 3.12%
9,Cc1cc(=O)[nH]c(N[N+](=O)[O-])n1,inactive: -2.56%
10,Cc1c2c(nc3ccccc13)SC(C(Cl)Cl)C2 (stereo not given),inactive: -1.84%
11,COc1ccc2nc(NP(=O)(c3ccccc3)c3ccccc3)sc2c1,inactive: -3.42%
12,COc1cc(I)ccc1[As](=O)(O)O,inactive: 5.12%
13,O=P1(N(CCCl)CCCl)Nc2ccccc2N1,inactive: 4.5%
14,O=P1(N(CCCl)CCCl)OCCCN1CCCl (stereo not given),inactive: 1.36%
15,COc1ccc(N/C(=N/P(=O)(N2CCOCC2)N2CCOCC2)N2CCOCC2)cc1,inactive: 0.46%
16,O=[N+]([O-])c1cc(Oc2ccc([N+](=O)[O-])cc2C(F)(F)F)cc([N+](=O)[O-])c1,inactive: -0.85%
17,O=[As](O)(O)c1cccnc1,inactive: -2.28%
18,COc1cc(C(=O)NCC2(N3CCOCC3)CCCCC2)cc(Cl)c1OC(C)C,inactive: -4.57%
19,CS(=O)(=O)c1ccc(Cl)c(NC(=O)COC(=O)C(O)(c2ccccc2)c2ccccc2)c1,inactive: -2.04%
20,O=C(OC1CN2CCC1CC2)c1ccc(Cl)cc1 (stereo not given),inactive: -1.33%
21,Cc1cccc(OCC(=O)OC2CN3CCC2CC3)c1 (stereo not given),inactive: 3.8%
22,O=[As](O)(c1cccc(O)c1)c1cccc(O)c1,inactive: 0.69%
23,CCCOP(=S)(Nc1nc(N)cc(=O)[nH]1)OCCC,inactive: -0.15%
24,Cc1ccc(NCCc2c([N+](=O)[O-])cc([N+](=O)[O-])cc2[N+](=O)[O-])cc1,inactive: -1.5%
25,Nc1cccc2c([As](=O)(O)O)cccc12,inactive: 7.61%

row,Structure (SMILES),inhibition
1,COc1cc(C2NCCC3(OCCO3)C2(C)C)cc(OC)c1OC (stereo not given),inactive: 6.12%
2,CCOP(=O)(Nc1cccc2ccccc12)OCC,inactive: 9.91%
3,CS(=O)(=O)c1cc([N+](=O)[O-])c2no[n+]([O-])c2c1,inactive: -11.6%
4,CCOP1(=S)c2c(C)nn(CCC#N)c2N=C(c2ccccc2F)N1C (stereo not given),inactive: 0.02%
5,O=P(Nc1nccs1)(Oc1ccccc1)Oc1ccccc1,inactive: -0.74%
6,O=P(Nc1nccs1)(c1ccccc1)c1nc2ccccc2s1 (stereo not given),inactive: -4.56%
7,Nc1ccccc1[As](=O)(O)c1ccccc1,inactive: 0.33%
8,O=C(O)COc1ccc([As](=O)(O)O)cc1[N+](=O)[O-],inactive: -2.79%
9,NC(=O)Nc1ccc([As](=O)(O)O)cc1,inactive: -2.46%
10,O=[N+]([O-])c1ccc2c(c1)nnn2O,inactive: 1.54%
11,CN(C)C(=O)c1cc([N+](=O)[O-])cc2c1-c1c(cc([N+](=O)[O-])cc1[N+](=O)[O-])C2=O,inactive: -6.06%
12,CN(C(=O)Cc1ccc(Cl)c(Cl)c1)[C@H]1CC[C@@]2(CCCO2)C[C@@H]1N1CCCC1,inactive: 1.28%
13,N#CCCN(C(=O)COC(=O)C(O)(c1ccccc1)c1ccccc1)c1ccc(F)cc1,inactive: -1.81%
14,CN(C(=O)Cc1ccccc1)[C@@H]1CC[C@]2(CCCO2)C[C@H]1N1CCCC1,inactive: -2.68%
15,CCOP1(=S)c2c(C)nn(CCC#N)c2N=C(c2ccc(F)cc2)N1C (stereo not given),inactive: 0.23%
16,Cc1nn(-c2ccccc2)c2c1P(=O)(N1CCOCC1)N(C)C(c1ccccc1)=N2 (stereo not given),inactive: 4.01%
17,CC1CCC(C(C)C)C(OP(=O)(Nc2ccccn2)c2ccccc2)C1 (stereo not given),inactive: 2.78%
18,Cc1ccc(C(=O)OC2CN3CCC2CC3)cc1 (stereo not given),inactive: 1.05%
19,O=C(/C=C/c1ccccc1)OC1CN2CCC1CC2 (stereo not given),inactive: 1.93%
20,CCCC1OP(=O)(Nc2ccccc2)OCC1CC (stereo not given),inactive: -1.95%
21,CN(C)C1(CNC(=O)c2ccc(S(C)(=O)=O)cc2)CCCCC1,inactive: 0.3%
22,O=P1(Nc2ncccn2)COc2ccccc2OC1,inactive: -3.22%
23,Cc1ccc(S(=O)(=O)N(CCCN)CCCc2c(C)nc(N)[nH]c2=O)cc1,inactive: -8.4%
24,Cc1ccc(OCC(=O)OC2CN3CCC2CC3)cc1 (stereo not given),inactive: 0.75%
25,O=[As](O)(c1cccs1)c1cccs1,inactive: 0.72%

row,Structure (SMILES),inhibition
1,O=P1(Nc2ccc(Br)cn2)COc2ccccc2OC1,inactive: -4.21%
2,NS(=O)(=O)c1cccc(NC(=O)COC(=O)C(O)(c2ccccc2)c2ccccc2)c1,inactive: -0.4%
3,Nc1cccc([As](=O)(O)c2ccccc2)c1,inactive: -0.56%
4,CCOP(=O)(Nc1ccc(C)cn1)OCC,inactive: -0.22%
5,CN(CCCl)Cc1cc(Cl)c(NC2=NCCN2)c(Cl)c1,inactive: 0.01%
6,O=P1(Nc2ccccn2)COc2ccccc2OC1,inactive: -1.27%
7,CCC1=CC2Cc3nc4ccc(Cl)cc4c(N)c3C(C1)C2 (stereo not given),inactive: 4.59%
8,CCOP(=O)(NC(=NC(C)c1ccccc1)NC(C)c1ccccc1)OCC (stereo not given),inactive: -1.23%
9,O=P1(N(CCCl)CCCl)NCCC(C(F)(F)F)O1 (stereo not given),inactive: -1.77%
10,Clc1n[nH]nc1-c1nn[nH][15n]1,inactive: 3.18%
11,CC(C)(C)C(=O)NC(Sc1ncccn1)C(Cl)(Cl)Cl (stereo not given),inactive: 1.26%
12,COc1ccccc1CNC(=O)COC(=O)C(O)(c1ccccc1)c1ccccc1,inactive: -2.33%
13,CC1(CBr)Cn2c(nc3ccccc3c2=O)S1 (stereo not given),inactive: -5.19%
14,CC(C)/C=N\N=C(\N)N[N+](=O)[O-],inactive: 4.72%
15,CN(C(=O)Cc1ccc(Cl)c(Cl)c1)[C@@H]1CCCC[C@H]1N1CCCC1,inactive: -3.97%
16,CC(C)C(=O)NC(Sc1ccccc1)C(Cl)(Cl)Cl (stereo not given),inactive: 2.81%
17,O=P(Nc1nccs1)(c1ccccc1)c1ccccc1,inactive: -3.54%
18,c1nnnn1CCn1cnnn1,inactive: 3.06%
19,COc1ccc(N)c([N+](=O)[O-])c1[N+](=O)[O-],inactive: -6.09%
20,Nc1ccc(CCCCOc2ccccc2)cc1,inactive: -8.49%
21,O=P(Nc1ccccn1)(c1ccc(Br)cc1)c1ccc(Br)cc1,inactive: 10.6%
22,CN(C)C1(CNC(=O)c2ccc(Cl)c(S(N)(=O)=O)c2)CCCCC1,inactive: -0.1%
23,O=P(Nc1nc2ccccc2s1)(c1ccccc1)c1ccccc1,inactive: -0.6%
24,C[C@H]1OP(=O)(Oc2ccccc2)[C@H](O)[C@H](O)[C@H]1N=[N+]=[N-] (stereo not given in full),inactive: -1.3%
25,O=[N+]([O-])c1ccc(O)c(/C=N/Nc2ccc([N+](=O)[O-])cc2[N+](=O)[O-])c1,inactive: 4.58%

# — PubChem BioAssay AID588726 (The Scripps Research Institute Molecular Screening Center, 2011)
